Data taken from paper PMC6329795.
Construct, isoform or probe ends are uncertain for at least one entry. A negative result means that nothing was seen under these conditions.

Tested on: KPAF4-WT (Trypanosoma brucei (procyclic 29-13))
Experiment: EMSA
Conditions: EMSA on 3-12% native PAGE, 5' radiolabeled RNA, increasing KPAF4; native protein; protein details: C-terminal TAP; label: 5' 32P

| Sequence | binding result |
| --- | --- |
| GGGUGGUGGUUUUGUUGAUUUACCCGGUGUAAAGUAUUAUACACGUAUUGUAAGUUAGAUUUAGAUAUAAGAUAUGUUUUU [RPS12 No-tail RNA] | no binding |
| GGGUGGUGGUUUUGUUGAUUUACCCGGUGUAAAGUAUUAUACACGUAUUGUAAGUUAGAUUUAGAUAUAAGAUAUGUUUUUAAAAAAAAAAAAAAAAAAAA [RPS12 A-tail RNA] | binds |
| GGGUGGUGGUUUUGUUGAUUUACCCGGUGUAAAGUAUUAUACACGUAUUGUAAGUUAGAUUUAGAUAUAAGAUAUGUUUUUUUUUUUUUUUUUUUUUUUUU [RPS12 U-tail RNA] | no binding |
